Test results from US11603380B2 (Centre national de la recherche scientifique, priority 2018, dated 2023).

Test system: VZV-BAC-Luc strain (wild type)
Type: cell-based, varicella zoster virus
Details: VZV in cultured cells; listed as compound (5)

[(Z)-2-[(2,6-diaminopyrimidin-4-yl)oxymethyl]-4-[3-hexadecoxypropoxy (isopropoxycarbonyloxymethoxy)phosphoryl]but-2′-enyl]acetate [Compound (5)]
potency relative to acyclovir and cidofovir: ~100 times

The amount applied is not stated for every result.
